Among the data in patent US20250011397A1 (HOSPITAL FOR SICK CHILDREN, published 2025) are Kd values, retold here.

In this assay the target is T1, SARS-CoV-2 receptor binding domain (RBD), wild type, His-tagged (BEI NR52309) (SARS-CoV-2, UniProt P0DTC2 319-541).
T1 construct: also called WT RBD
The experiment in a line: RBD KD column; method and antibody format not stated.

B1: mAb 80 (antibody, V domains shown)
VH: QVQLVQSGAEVKKPGSSVKVSCKASGGTFNRYAFSWVRQAPGQGLEWMGGIIPIFGTANYAQKFQGRVTITADESTSTAYMELSSLRSEDTAVYYCARSTRELPEVVDWYFDLWGRGTLVTVSS
VL: DIVMTQSPDSLAVSLGERATINCKSSQSVLYSSNNKNYLAWYQQKPGQPPKLLIYWASTRESGVPDRFSGSGSGTDFTLTISSLQAEDVAVYYCQQYYSAPLTFGGGTKVEIKR
notes: also called IgG 80; 80 mAb
On to B1, for which the Kd (in general, the free concentration of one partner at which half of the binding sites on the other are occupied at equilibrium, for simple one-to-one binding) was found to be 142 nM.

B2: mAb 298 (antibody, V domains shown)
VH: QVQLVQSGAEVKKPGASVKVSCKASGGTFSTYGISWVRQAPGQGLEWMGWISPNSGGTDLAQKFQGRVTMTRDTSTSTVYMELSSLRSEDTAVYYCASDPRDDIAGGYWGQGTLVTVSS
VL: not shown
notes: also called IgG 298; antibody 298
Take B2: binding was put at a Kd of 24 nM.
